Reference: paper PMC7864994, “Structure and binding properties of Pangolin-CoV spike glycoprotein inform the evolution of SARS-CoV-2” (2021)

Biological target: Pangolin-CoV S ectodomain (Pangolin coronavirus MP789 isolate spike) (Pangolin coronavirus MP789 isolate (from Malayan pangolin, Manis javanica))
Experiment: BLI

## pangolin ACE2 ectodomain (Malayan pangolin, Manis javanica) (receptor)
  Kd: 850 nM and 663 nM

Several values for one entry are separate records, joined by “and”; a condition that tells them apart may be missing. Equal entries are not always repeated.
